Source: EP4837634A2, “COMBINATION OF TWO ANTIVIRALS FOR TREATING HEPATITIS C” (dated 2026)

How the values were obtained:
[1] = test system: HCV genotype 1 NS3 resistance-associated variants in GT 1b (Con-1); assay: Replicon activity against NS3 resistance-associated variants, GT 1b; details: GT1b variants that conferred resistance to other HCV protease inhibitors
[2] = test system: replicon containing GT3a NS3 protease; assay: Resistant colony selection in replicon containing GT3a NS3 protease; details: concentrations ≥ 100-fold over its EC50 value
[3] = test system: HCV genotype 1 NS3 resistance-associated variants in GT 1a (H77); assay: Replicon activity against NS3 resistance-associated variants, GT 1a; details: GT1a variants that conferred resistance to other HCV protease inhibitors
[4] = test system: NS5A inhibitor and NS5B inhibitor resistance-associated variants in GT 1b; details: e.g. L28T, Y93H, S282T, C316Y, Y448H and S556G in GT 1b

With CC(C)(C)[C@@H]1NC(=O)O[C@@H]2CCC[C@H]2OC/C=C/C(F)(F)c2nc3ccccc3nc2O[C@@H]2C[C@@H](C(=O)N[C@]3(C(=O)NS(=O)(=O)C4(C)CC4)C[C@H]3C(F)F)N(C2)C1=O the “activity against common variants at NS3 amino acid positions 155 and 168” value [1] was “retained its activity”, the colonies selected [2] was “very few colonies” and the “activity against common variants at NS3 amino acid positions 155 and 168” value [3] was “retained its activity”. The “activity against NS5A inhibitor and NS5B inhibitor resistance-associated variants” value [4] was “potent activity”.
